Amino acid sequences for entries named in this document (tags omitted). Residues count along the entry.
UniProt P27958, 1027-1657 limits assumed: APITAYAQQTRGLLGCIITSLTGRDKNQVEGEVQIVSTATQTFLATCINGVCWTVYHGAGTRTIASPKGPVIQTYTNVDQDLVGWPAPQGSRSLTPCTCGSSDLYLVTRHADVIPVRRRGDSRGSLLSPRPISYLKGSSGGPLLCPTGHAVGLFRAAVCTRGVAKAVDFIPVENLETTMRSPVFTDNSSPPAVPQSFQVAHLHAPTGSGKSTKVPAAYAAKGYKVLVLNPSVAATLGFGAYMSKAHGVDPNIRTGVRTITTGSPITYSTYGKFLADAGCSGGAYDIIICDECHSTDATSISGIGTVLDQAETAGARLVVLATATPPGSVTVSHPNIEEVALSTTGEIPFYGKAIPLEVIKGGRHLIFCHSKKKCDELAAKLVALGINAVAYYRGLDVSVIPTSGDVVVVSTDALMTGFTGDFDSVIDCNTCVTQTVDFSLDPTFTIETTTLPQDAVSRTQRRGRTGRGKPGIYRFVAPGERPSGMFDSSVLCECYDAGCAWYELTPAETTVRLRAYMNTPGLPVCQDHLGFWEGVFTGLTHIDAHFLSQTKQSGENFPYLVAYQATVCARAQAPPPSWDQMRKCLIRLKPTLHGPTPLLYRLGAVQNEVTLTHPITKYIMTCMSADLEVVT
UniProt P27958, 1658-1711 partner limits assumed: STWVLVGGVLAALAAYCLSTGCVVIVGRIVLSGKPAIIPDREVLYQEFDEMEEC

According to patent publication US8067379B2, “Sulfur compounds as inhibitors of hepatitis C virus NS3 serine protease” (Schering Corporation, priority 2004, dated 2011):

Molecular target: Recombinant heterodimeric HCV NS3/NS4A protease (strain 1a) (Hepatitis C virus genotype 1a, UniProt P27958)
Assay: Spectrophotometric assay for HCV serine protease inhibitory activity (chromogenic ester substrates)
Assay type: biochemical
Settings: read-out: Ki* Range; Table 3A; class symbols

| Compound | Ki [nM] |
| --- | --- |
| C=CCNC(=O)C(=O)[C@H](CC1CC1)NC(=O)[C@@H]1[C@@H]2[C@H](CN1C(=O)[C@@H](NC(=O)NC1([C@@H]3CCCS3(=O)=O)CCCCC1)C1CCCCC1)C2(C)C | < 75 |
| CCCC[C@H](NC(=O)[C@@H]1[C@@H]2[C@H](CN1C(=O)[C@@H](NC(=O)NC1([C@H]3CCCS3(=O)=O)CCCCC1)C(C)(C)C)C2(C)C)C(=O)C(=O)NCCC | < 75 |
